The target in the test is amyloid fibrils formed from SEVI peptides (Homo sapiens, UniProt P15309). Kind of test: Fluorescence assay, affinity/avidity of BTA monomer and oligomers for SEVI fibrils. It counts as binding. The settings on record: read-out: SEVI Fibrils Kd; estimated affinity/avidity constants. How it is done:
To test whether binding affinity/avidity is reduced in oligomeric forms, the binding of monomeric and oligomeric forms was assayed to determine the affinity/avidity constants (Kd) for the binding of monomer and oligomers 1-5 to amyloid fibrils formed from SEVI peptides. Affinity/avidity constants were estimated using a standard fluorescence assay, as described recently (J. S. Olsen et al, J. Biol. Chem., 2010, 285, 35488-35496). The BTA based monomer has a higher Kd than oligomeric forms. Estimated Kds are show in Table 2.

Protein sequences, listed by entry. Tags and fused reporters are not part of them. Residues count along the entry.
UniProt P15309, 248-286 limits assumed: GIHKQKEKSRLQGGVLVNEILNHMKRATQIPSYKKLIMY

Kd data for one compound are collected here from patent US20130157924A1, “REDUCING TRANSMISSION OF SEXUALLY TRANSMITTED INFECTIONS” (THE REGENTS OF THE UNIVERSITY OF CALIFORNIA, priority 2010, published 2013).

pKd: −log10 of the molar value.

For orientation: pKd means the negative decadic logarithm of the Kd, by convention in mol/L. Regarding `Cc1ccc2nc(-c3ccc(NCCC(=O)NCCOCCOCCOCCOCCC(=O)NCCN(CCNC(=O)CCOCCOCCOCCOCCNC(=O)CCNc4ccc(-c5nc6ccc(C)cc6s5)cc4)CCNC(=O)CCOCCOCCOCCOCCNC(=O)CCNc4ccc(-c5nc6ccc(C)cc6s5)cc4)cc3)sc2c1`, the negative-log Kd (pKd) is 7.40.
